Pooled drug test results. Numbers come from NIAID ChemDB, via PubChem.

Common to all: toxicity to cultured cells; cells: MT-4; endpoint: CC50

Rows are shuffled and stem from different studies. CCn: concentration that lowers growth or viability of the cells by n%.

O=C1NCc2c1ccnc2-c1cc(-c2cc(F)cc(OC(F)F)c2)n(-c2ccc(F)c(Cl)c2)n1 ; read by: resazurin ; value: >3.3 µM
C#C[C@]1(CO)O[C@@H](n2ccc3c(N)nc(N)nc32)C[C@@H]1O ; read by: ATP / luminescence ; value: >8.4 µM
C=C1CN(S(=O)(=O)c2ccc(C)cc2)CCCN(CCC)CCCN(S(=O)(=O)c2ccc(C)cc2)C1 ; read by: trypan blue / propidium iodide ; value: 36.4 µM
O=C1NCc2c1ccnc2-c1cc(-c2cccc(Cl)c2)n(-c2cccc(C(F)(F)F)c2)n1 ; read by: resazurin ; value: >3.3 µM
Cn1nnc(CN2CCn3c(nc(C(=O)NCc4ccc(F)cc4)c(O)c3=O)C2(C)C)n1 ; read by: microscopy ; value: >1 µM
O=C1NCc2c1cccc2-c1cc(-c2ccc(F)c(OC(F)(F)F)c2)n(-c2cccc(Cl)c2)n1 ; read by: resazurin ; value: >3.3 µM
NC(=O)C[C@H](NC(=O)CNC1c2ccc3cc4c5c6c(cc7ccc8cc9cc1c1c9c9c8c7c6c9c6c1c2c3c56)C4)C(=O)O ; read by: trypan blue ; value: >700 µM
Clc1ccc(-c2nnc3sc(-c4cccnc4)nn23)cc1Cl ; value: 80.05 µg/mL
C=C1CN(S(=O)(=O)c2ccccc2)CCCN(Cc2ccccc2)CCCN(S(=O)(=O)c2ccccc2)C1 ; read by: trypan blue / propidium iodide ; value: 40.2 µM
C#C[C@]1(CO)O[C@@H](n2cc(C)c3c(N)ncnc32)C[C@@H]1O ; read by: ATP / luminescence ; value: >8.4 µM
O=C1Cn2c(nc(C(=O)NCc3ccc(F)cc3)c(O)c2=O)CN1 ; read by: microscopy ; value: >1 µM
Cc1ccc(Cn2cccc2/C=C/C(=O)CC(=O)C(=O)O)c(C)c1 ; read by: resazurin ; value: 25.5 µM
N#Cc1cc(Cl)cc(Oc2cc(F)c(Cl)c(OCc3[nH]nc4ncccc34)c2)c1 ; read by: microscopy ; value: >20 µM
Clc1ccc(-c2nnc3sc(-c4ccc[nH]4)nn23)cc1Cl ; value: 68.48 µg/mL
O=C1NCc2c1ccnc2-c1cc(-c2cccc(F)c2F)n(-c2ccc(F)c(Cl)c2)n1 ; read by: resazurin ; value: >3.3 µM
N[C@@H](CCCCNC1c2ccc3cc4c5c6c(cc7ccc8cc9cc1c1c9c9c8c7c6c9c6c1c2c3c56)C4)C(=O)O ; read by: trypan blue ; value: >850 µM
CCCCCCCCCCCCCCCC(=O)Oc1c2n(cc(C(=O)NCc3ccc(F)cc3F)c1=O)[C@@H]1CN(C2=O)[C@@H](C)CC[C@]12CC(C)=NO2 ; read by: luminescence ; value: 50 µM
Cc1ccc(-c2nnc(COc3ccc(Cl)c(Oc4cc(Cl)cc(C#N)c4)c3)o2)cc1 ; read by: microscopy ; value: >20 µM
CN(CC1c2nc(C(=O)NCc3ccc(F)cc3)c(O)c(=O)n2CCN1C)C(=O)c1ccccn1 ; read by: microscopy ; value: >10 µM
CCOC(=O)C(=O)CC(=O)/C=C/c1cccn1Cc1ccc(C)cc1C ; read by: resazurin ; value: 15.4 µM
CCCCCCCC(=O)OCOc1c2n(cc(C(=O)NCc3ccc(F)cc3F)c1=O)[C@@H]1CN(C2=O)[C@@H](C)CC[C@]12CC(C)=NO2 ; read by: luminescence ; value: 50 µM
O=C(/C=C/c1cccn1Cc1ccccc1Cl)CC(=O)C(=O)O ; read by: resazurin ; value: >50 µM
O=C1NCc2c1ccnc2-c1cc(-c2cc(F)cc(Cl)c2)n(-c2ccc(F)c(Cl)c2)n1 ; read by: resazurin ; value: >3.3 µM
CCCCCCCCCCCCCCCCCCOC(=O)Oc1c2n(cc(C(=O)NCc3ccc(F)cc3F)c1=O)[C@@H]1CN(C2=O)[C@@H](C)CC[C@]12CC(C)=NO2 ; read by: luminescence ; value: 50 µM
N#Cc1cc(Cl)cc(Oc2cc(Cl)cc(OCC(=O)NCC3CCS(=O)(=O)C3)c2)c1 ; read by: microscopy ; value: >20 µM
C=C1CN(S(=O)(=O)c2ccc(C)cc2)CCCN(C(C)=O)CCCN(S(=O)(=O)c2ccc(C)cc2)C1 ; read by: trypan blue / propidium iodide ; value: >75 µM
O=C1NCc2c1ccnc2-c1cc(-c2cc(F)cc(OC(F)(F)F)c2)n(-c2ccc(F)c(Cl)c2)n1 ; read by: resazurin ; value: >3.3 µM
CC1(C)c2nc(C(=O)NCc3ccc(F)cc3)c(O)c(=O)n2CCN1Cc1cocn1 ; read by: microscopy ; value: >1 µM
CCCCCCCCC(=O)OCOc1c2n(cc(C(=O)NCc3ccc(F)cc3F)c1=O)[C@@H]1CN(C2=O)[C@@H](C)CC[C@]12CC(C)=NO2 ; read by: luminescence ; value: 50 µM
Clc1ccc(-c2nn3c(-c4cccc(Br)c4)nnc3s2)cc1Cl ; value: 4.12 µg/mL
C=C1CN(S(=O)(=O)c2ccc(C)cc2)CCCN(CCC(C)C)CCCN(S(=O)(=O)c2ccc(C)cc2)C1 ; read by: trypan blue / propidium iodide ; value: 32.5 µM
NS(=O)(=O)c1ccc(NC(=O)COc2cccc(Cc3ccccc3)c2)c(Cl)c1 ; read by: microscopy ; value: >20 µM
C=C1CN(S(=O)(=O)c2ccc(N)cc2)CCCN(Cc2ccccc2)CCCN(S(=O)(=O)c2ccc(N)cc2)C1 ; read by: trypan blue / propidium iodide ; value: 34.3 µM
COC1=NO[C@@]2(CC[C@H](C)N3C[C@H]2n2cc(C(=O)NCc4ccc(F)cc4F)c(=O)c(OCOC(=O)OCCCCCCCC(C)C)c2C3=O)C1 ; read by: luminescence ; value: 50 µM
C#C[C@]1(CO)O[C@@H](c2cnn3c(N)ncnc23)C[C@@H]1O ; read by: ATP / luminescence ; value: >8.4 µM
CC(=O)N1CCc2nc(C(=O)NCc3ccc(F)cc3)c(O)c(=O)n2CC1 ; read by: microscopy ; value: >1 µM
O=C1NCc2c1cccc2-c1cc(-c2cc(F)cc(Cl)c2)n(-c2ccc(F)c(Cl)c2)n1 ; read by: resazurin ; value: >3.3 µM
C#C[C@]1(CO)O[C@@H](n2cc(Br)c3c(N)ncnc32)C[C@@H]1O ; read by: ATP / luminescence ; value: >8.4 µM
Clc1ccc(-c2nnc3sc(-c4cnccn4)nn23)cc1Cl ; value: 2.11 µg/mL
O=C1NCc2c1ccnc2-c1cc(-c2cc(Cl)cc(OC(F)F)c2)n(-c2cccnc2)n1 ; read by: resazurin ; value: >3.3 µM
CCCc1nc2n(n1)C(c1ccccc1)CC(=O)N2 ; read by: visual reading ; value: >100 µg/mL
CCOC(=O)C(=O)CC(=O)/C=C/c1cc(-c2ccccc2)cn1Cc1ccc(F)cc1 ; read by: resazurin ; value: 26.9 µM
CN(C)CC1c2nc(C(=O)NCc3ccc(F)cc3)c(O)c(=O)n2CCN1C(=O)C(=O)N(C)C ; read by: microscopy ; value: >1 µM
O=c1[nH]cnc2ncc(-c3cccs3)nc12 ; read by: MTT / absorbance ; value: 48.22 µM
O=C1CC(c2ccc([N+](=O)[O-])cc2)n2nc(-c3ccc4ccccc4c3)nc2N1 ; read by: visual reading ; value: >100 µg/mL
CCCCCCCCCCCC(=O)OCOc1c2n(cc(C(=O)NCc3ccc(F)cc3F)c1=O)[C@@H]1CN(C2=O)[C@@H](C)CC[C@]12CC(OC)=NO2 ; read by: luminescence ; value: 50 µM
COc1cccc(Cn2cccc2/C=C/C(=O)CC(=O)C(=O)O)c1 ; read by: resazurin ; value: >50 µM
C=C1CN(S(=O)(=O)c2ccc(Br)cc2)CCCN(Cc2ccccc2)CCCN(S(=O)(=O)c2ccc(Br)cc2)C1 ; read by: trypan blue / propidium iodide ; value: 47.7 µM
CC1=C[C@@H](OCP(=O)(OCCSC(=O)C(C)(C)C)OCCSC(=O)C(C)(C)C)C[C@H]1n1cnc2c(N)ncnc21 ; read by: XTT ; value: 24 µM
O=C(CSc1nc2nc(C3=CCC=C=N3)c(-c3ccccn3)nc2c(=O)[nH]1)c1ccccc1 ; read by: MTT / absorbance ; value: 41.88 µM
C#C[C@]1(CO)O[C@@H](n2cc(Cl)c3c(N)ncnc32)C[C@@H]1O ; read by: ATP / luminescence ; value: >8.4 µM
CSc1ccccc1CNC(=O)c1nc2n(c(=O)c1O)CN(C)C2(C)C ; read by: microscopy ; value: >1 µM
C=C1CN(S(=O)(=O)c2ccc(C)cc2)CCCN(CC(C)CC)CCCN(S(=O)(=O)c2ccc(C)cc2)C1 ; read by: trypan blue / propidium iodide ; value: 34.5 µM
C#C[C@]1(CO)O[C@@H](n2cc(I)c3c(N)ncnc32)C[C@@H]1O ; read by: ATP / luminescence ; value: >8.4 µM
N#Cc1cc(Cl)cc(Oc2cc(F)cc(OCc3[nH]nc4nc(N)ccc34)c2)c1 ; read by: microscopy ; value: >20 µM
CC1(C)c2nc(C(=O)NCc3ccc(F)cc3)c(O)c(=O)n2CCN1CC(=O)N1CCCC1 ; read by: microscopy ; value: >1 µM
O=c1[nH]cnc2nc(-c3ccccn3)c(-c3ccccn3)nc12 ; read by: MTT / absorbance ; value: 50.52 µM
CN(C)S(=O)(=O)c1ccc2c(c1)CCN2C(=O)COc1cc(Cl)cc(Oc2cc(Cl)cc(C#N)c2)c1 ; read by: microscopy ; value: >20 µM
C#C[C@]1(CO)O[C@@H](n2ccc3c(N)nc(F)nc32)C[C@@H]1O ; read by: ATP / luminescence ; value: >8.4 µM
C=C1CN(S(=O)(=O)c2ccc(C)cc2)CCCN(Cc2cccnc2)CCCN(S(=O)(=O)c2ccc(C)cc2)C1 ; read by: trypan blue / propidium iodide ; value: 32.6 µM
Nc1nc2nc(-c3ccccn3)c(-c3ccccn3)nc2c(=O)[nH]1 ; read by: MTT / absorbance ; value: 105.7 µM
N#Cc1cc(Cl)cc(Oc2cc(OCc3nc(-c4ccccc4)no3)ccc2Cl)c1 ; read by: microscopy ; value: >20 µM
CCCc1nc2n(n1)C(c1ccc(OC)cc1)CC(=O)N2 ; read by: visual reading ; value: >100 µg/mL
O=c1[nH]c(=O)c2nc(-c3ccccn3)c(-c3ccccn3)nc2[nH]1 ; read by: MTT / absorbance ; value: 103 µM

The last 8 rows once more:

smiles,read by,value
O=c1[nH]cnc2nc(-c3ccccn3)c(-c3ccccn3)nc12,MTT / absorbance,50.52 µM
CN(C)S(=O)(=O)c1ccc2c(c1)CCN2C(=O)COc1cc(Cl)cc(Oc2cc(Cl)cc(C#N)c2)c1,microscopy,>20 µM
C#C[C@]1(CO)O[C@@H](n2ccc3c(N)nc(F)nc32)C[C@@H]1O,ATP / luminescence,>8.4 µM
C=C1CN(S(=O)(=O)c2ccc(C)cc2)CCCN(Cc2cccnc2)CCCN(S(=O)(=O)c2ccc(C)cc2)C1,trypan blue / propidium iodide,32.6 µM
Nc1nc2nc(-c3ccccn3)c(-c3ccccn3)nc2c(=O)[nH]1,MTT / absorbance,105.7 µM
N#Cc1cc(Cl)cc(Oc2cc(OCc3nc(-c4ccccc4)no3)ccc2Cl)c1,microscopy,>20 µM
CCCc1nc2n(n1)C(c1ccc(OC)cc1)CC(=O)N2,visual reading,>100 µg/mL
O=c1[nH]c(=O)c2nc(-c3ccccn3)c(-c3ccccn3)nc2[nH]1,MTT / absorbance,103 µM